Results from paper PMC3307029.

Assays:
Assay in all cases: EMSA
[1] = test system: E2-C (prototype) (Human papillomavirus type 2 (prototype)); conditions: much stronger than E2-HC and E2-FL; 10 mM Tris, 50 mM KCl, 1 mM DTT, pH 7.5, room temperature, 20 min, 20 ul; 6.5% native PAGE; recombinant protein; protein details: GST; label: biotin
[2] = test system: E2-HC (prototype) (Human papillomavirus type 2 (prototype)); conditions: weaker than A338V and than E2-C; 10 mM Tris, 50 mM KCl, 1 mM DTT, pH 7.5, room temperature, 20 min, 20 ul; 6.5% native PAGE; recombinant protein; protein details: GST; label: biotin
[3] = test system: E2-FL (prototype) (Human papillomavirus type 2 (prototype)); conditions: weaker than A338V and than E2-C; 10 mM Tris, 50 mM KCl, 1 mM DTT, pH 7.5, room temperature, 20 min, 20 ul; 6.5% native PAGE; recombinant protein; protein details: GST; label: biotin

Measured: binding result

GGCGTAACCGAAATCGGTTGAACCGAAACCGGTT (double strand) [HPV-16 prototype LCR oligo]
binds: all assays above

For at least one entry, the source does not settle the construct or the ends of the probe. For part of these data: At least one verdict was read from the data and is not stated in words by the source.
